Results on 27 compounds are retold here after patent US9540343B2 (Gilead Sciences, Inc., priority 2011, dated 2017).

A short description of the data set: in vitro. Conditions: human, CC50 (nM), uninfected MT-4 cells, same protocol as Test A, CellTiter-Glo.

Broadly, the CC50 is the concentration at which the toxic effect on the cells reaches its halfway point. Read a high CC50 as lower toxicity to the cells.

Consider `NC(=O)c1cc(-c2cccnc2[C@H](Cc2cc(F)cc(F)c2)NC(=O)Cn2nc(C(F)F)c(C3CC3)c2C(F)F)ccc1F` [Example 562, (S)-5-(2-(1-(2-(4-cyclopropyl-3,5-bis(difluoromethyl)-1H-pyrazol-1-yl)acetamido)-2-(3,5-difluorophenyl)ethyl)pyridin-3-yl)-2-fluorobenzamide], for which the midpoint of cytotoxicity, the CC50 at 5 days, lay at 17800 nM.

Take `NC(=O)c1cc(-c2cccnc2[C@H](Cc2cc(F)cc(F)c2)NC(=O)Cn2nc(C(F)(F)F)c3c2C(F)(F)C2CC32)ccc1F` (single isomer, unassigned) [Example 449]: the CC50 at 5 days is 21100 nM.

`NC(=O)c1cc(-c2cccnc2[C@H](Cc2cc(F)cc(F)c2)NC(=O)Cn2nc(C(F)(F)F)c3c2C2CC2C3(F)F)ccc1F` (stereo partly drawn) [Example 462J, 5-(2-((1S)-1-(2-(4,4-difluoro-3-(trifluoromethyl)-4,4-a,5,5a-tetrahydro-1H-cyclopropa[4,5]cyclopenta[1,2-c]pyrazol-1-yl)acetamido)-2-(3,5-difluorophenyl)ethyl)pyridin-3-yl)-2-fluorobenzamide]: the midpoint of cytotoxicity, the CC50 at 5 days, lay at 18000 nM.

`NC(=O)c1cc(-c2cccnc2[C@H](Cc2cc(F)cc(F)c2)NC(=O)Cn2nc(C(F)F)c3c2C(F)(F)CCC3(F)F)ccc1F` [Example 344, (S)-5-(2-(1-(2-(3-(difluoromethyl)-4,4,7,7-tetrafluoro-4,5,6,7-tetrahydro-1H-indazol-1-yl)acetamido)-2-(3,5-difluorophenyl)ethyl)pyridin-3-yl)-2-fluorobenzamide]: the midpoint of cytotoxicity, the CC50 at 5 days, lay at 17200 nM.

With `O=C(Cc1c[nH]c2ccc(O)cc12)N[C@H](Cc1cc(F)cc(F)c1)c1ncncc1-c1ccc(Cl)cc1` [Example 284, (R)—N-(1-(5-(4-chlorophenyl)pyrimidin-4-yl)-2-(3,5-difluorophenyl)ethyl)-2-(5-hydroxy-1H-indol-3-yl)acetamide], the midpoint of cytotoxicity, the CC50 at 5 days, lay at 16200 nM.

In turn, `NC(=O)c1cc(-c2cccnc2[C@H](Cc2cc(F)cc(F)c2)NC(=O)Cn2nc(C(F)(F)F)c3c2C(F)(F)CCC3)ccc1F` [Example 311B, (S)-5-(2-(1-(2-(7,7-difluoro-3-(trifluoromethyl)-4,5,6,7-tetrahydro-1H-indazol-1-yl)acetamido)-2-(3,5-difluorophenyl)ethyl)pyridin-3-yl)-2-fluorobenzamide] had a CC50 at 5 days of 14800 nM.

In turn, `O=C(Cc1c[nH]c2ccc(O)cc12)N[C@@H](Cc1cc(F)cc(F)c1)c1ncncc1-c1ccc(Cl)cc1` [Example 316, (S)—N-(1-(5-(4-chlorophenyl)pyrimidin-4-yl)-2-(3,5-difluorophenyl)ethyl)-2-(5-hydroxy-1H-indol-3-yl)acetamide] gave a CC50 at 5 days of 21400 nM.

Take `NC(=O)c1cc(-c2cccnc2[C@H](Cc2cc(F)cc(F)c2)NC(=O)Cn2nc(C(F)(F)F)c3c2CCOC3)ccc1F` [Example 112B, (S)-5-(2-(2-(3,5-difluorophenyl)-1-(2-(3-(trifluoromethyl)-6,7-dihydropyrano[4,3-c]pyrazol-1(4H)-yl)acetamido)ethyl)pyridin-3-yl)-2-fluorobenzamide]: the CC50 at 5 days was > 53200 nM.

Regarding `NC(=O)c1cc(-c2cccnc2[C@H](Cc2cc(F)cc(F)c2)NC(=O)Cn2nc(C(F)(F)F)c3c2CCCCC3)ccc1F` [Example 458, (S)-5-(2-(2-(3,5-difluorophenyl)-1-(2-(3-(trifluoromethyl)-5,6,7,8-tetrahydrocyclohepta[c]pyrazol-1(4H)-yl)acetamido)ethyl)pyridin-3-yl)-2-fluorobenzamide], half-maximal cytotoxicity (CC50 at 5 days) was put at 15700 nM.

In turn, `NC(=O)c1cc(-c2cccnc2[C@H](Cc2cc(F)cc(F)c2)NC(=O)Cn2nc(C(F)(F)F)c3c2C(F)(F)C2CC32)ccc1F` (stereo partly drawn) [Example 181E, 5-(2-((1S)-1-(2-(5,5-difluoro-3-(trifluoromethyl)-3b,4,4a,5-tetrahydro-1H-cyclopropa[3,4]cyclopenta[1,2-c]pyrazol-1-yl)acetamido)-2-(3,5-difluorophenyl)ethyl)pyridin-3-yl)-2-fluorobenzamide] showed a CC50 at 5 days of 27300 nM.

The compound `NC(=O)c1cc(-c2cccnc2[C@H](Cc2cc(F)cc(F)c2)NC(=O)Cn2nc(C(F)(F)F)c3c2CNCC3)ccc1F` [Example 352, (S)-5-(2-(2-(3,5-difluorophenyl)-1-(2-(3-(trifluoromethyl)-4,5,6,7-tetrahydro-1H-pyrazolo[3,4-c]pyridin-1-yl)acetamido)ethyl)pyridin-3-yl)-2-fluorobenzamide] gave a CC50 at 5 days of 32900 nM.

With `NC(=O)c1cc(-c2cccnc2[C@H](Cc2cc(F)cc(F)c2)NC(=O)Cn2ccc(C(F)(F)F)n2)ccc1F` [Example 455, (S)-5-(2-(2-(3,5-difluorophenyl)-1-(2-(3-(trifluoromethyl)-1H-pyrazol-1-yl)acetamido)ethyl)pyridin-3-yl)-2-fluorobenzamide], the CC50 at 5 days is > 53200 nM.

For `NC(=O)c1cc(-c2cccnc2[C@H](Cc2cc(F)cc(F)c2)NC(=O)Cn2nc(C(F)(F)F)c3c2CCCC3(F)F)ccc1F` [Example 102D, (S)-5-(2-(1-(2-(4,4-difluoro-3-(trifluoromethyl)-4,5,6,7-tetrahydro-1H-indazol-1-yl)acetamido)-2-(3,5-difluorophenyl)ethyl)pyridin-3-yl)-2-fluorobenzamide], half-maximal cytotoxicity (CC50 at 5 days) was put at 21500 nM. This counts as double-digit micromolar.

`NC(=O)c1cccc(-c2cccnc2[C@H](Cc2cc(F)cc(F)c2)NC(=O)Cc2c[nH]c3ccc(F)cc23)c1` [Example 50D, (S)-3-(2-(2-(3,5-difluorophenyl)-1-(2-(5-fluoro-1H-indol-3-yl)acetamido)ethyl)pyridin-3-yl)benzamide] displayed a half-maximal cytotoxic concentration (CC50) at 5 days of 16900 nM.

The compound `NC(=O)c1cc(-c2cccnc2[C@H](Cc2cc(F)cc(F)c2)NC(=O)Cn2nc(C(F)(F)F)c3c2C[C@@H]2C[C@H]32)ccc1F` (single isomer, unassigned) [Example 174] displayed a 50% cytotoxic concentration (CC50) at 5 days of 20000 nM.

For `NC(=O)c1cccc(-c2cccnc2[C@H](Cc2cc(F)cc(F)c2)NC(=O)Cc2c[nH]c3ccc(O)cc23)c1` [Example 39, (S)-3-(2-(2-(3,5-difluorophenyl)-1-(2-(5-hydroxy-1H-indol-3-yl)acetamido)ethyl)pyridin-3-yl)benzamide], the half-maximal cytotoxic concentration (CC50) at 5 days is > 48000 nM.

With `NC(=O)c1cc(-c2cccnc2[C@H](Cc2cc(F)cc(F)c2)NC(=O)Cn2nc(C(F)(F)F)c3c2CCC3)ccc1F` [Example 134, (S)-5-(2-(2-(3,5-difluorophenyl)-1-(2-(3-(trifluoromethyl)-5,6-dihydrocyclopenta[c]pyrazol-1(4H)-yl)acetamido)ethyl)pyridin-3-yl)-2-fluorobenzamide], half-maximal cytotoxicity (CC50 at 5 days) was put at 25200 nM.

Take `NC(=O)c1cc(-c2cccnc2[C@H](Cc2cc(F)cc(F)c2)NC(=O)Cn2nc(C(F)(F)F)c3ccccc32)ccc1F` [Example 250, (S)-5-(2-(2-(3,5-difluorophenyl)-1-(2-(3-(trifluoromethyl)-1H-indazol-1-yl)acetamido)ethyl)pyridin-3-yl)-2-fluorobenzamide]: half-maximal cytotoxicity (CC50 at 5 days) was put at 18500 nM.

As for `NC(=O)c1cc(-c2cccnc2[C@H](Cc2cc(F)cc(F)c2)NC(=O)Cn2nc(C(F)F)c3c2C2CCC3C2)ccc1F` (stereo partly drawn) [Example 83, (S)-5-(2-(2-(3,5-difluorophenyl)-1-(2-(4,5,6,7-tetrahydro-3-difluoromethyl-4,7-(methano)indazol-1-yl)acetamido)ethyl)pyridin-3-yl)-2-fluorobenzamide], the half-maximal cytotoxic concentration (CC50) at 5 days amounted to 25500 nM.

In the case of `NC(=O)c1cc(-c2cccnc2[C@H](Cc2cc(F)cc(F)c2)NC(=O)Cn2nc(C(F)(F)F)c3c2C2CC2C3)ccc1F` (stereo partly drawn) [Example 169E, 5-(2-((1S)-2-(3,5-difluorophenyl)-1-(2-(3-(trifluoromethyl)-4,4-a,5,5a-tetrahydro-1H-cyclopropa[4,5]cyclopenta[1,2-c]pyrazol-1-yl)acetamido)ethyl)pyridin-3-yl)-2-fluorobenzamide], the CC50 at 5 days stood at 19800 nM. This CC50 at 5 days and that of the compound before are within 1.5-fold of each other.

`NC(=O)c1cc(-c2cccnc2[C@H](Cc2cc(F)cc(F)c2)NC(=O)Cn2nc(C(F)F)c3c2C(F)(F)C2CC32)ccc1F` (stereo partly drawn) [Example 60H, 5-(2-((1S)-1-(2-(3-(difluoromethyl)-5,5-difluoro-3b,4,4a,5-tetrahydro-1H-cyclopropa[3,4]cyclopenta[1,2-c]pyrazol-1-yl)acetamido)-2-(3,5-difluorophenyl)ethyl)pyridin-3-yl)-2-fluorobenzamide]: the CC50 at 5 days amounted to 24000 nM.

In turn, `NC(=O)c1cc(-c2cccnc2[C@H](Cc2cc(F)cc(F)c2)NC(=O)Cn2nc(C(F)(F)F)c3c2CC2CC32)ccc1F` (stereo partly drawn) [Example 122G, 5-(2-((1S)-2-(3,5-difluorophenyl)-1-(2-(3-(trifluoromethyl)-3b,4,4a,5-tetrahydro-1H-cyclopropa[3,4]cyclopenta[1,2-c]pyrazol-1-yl)acetamido)ethyl)pyridin-3-yl)-2-fluorobenzamide] gave a 50% cytotoxic concentration (CC50) at 5 days of 19900 nM. This CC50 at 5 days and that of the compound before are within 1.5-fold of each other.

As to `NC(=O)c1cc(-c2cccnc2[C@H](Cc2cc(F)cc(F)c2)NC(=O)Cn2nc(C(F)(F)F)c3c2CCCC3)ccc1F` [Example 589, (S)-5-(2-(2-(3,5-difluorophenyl)-1-(2-(3-(trifluoromethyl)-4,5,6,7-tetrahydro-1H-indazol-1-yl)acetamido)ethyl)pyridin-3-yl)-2-fluorobenzamide], the CC50 at 5 days turned out to be 17900 nM.

Regarding `NC(=O)c1cccc(-c2cccnc2[C@H](Cc2cc(F)cc(F)c2)NC(=O)Cn2ccc3ccccc32)c1` [Example 426, (S)-3-(2-(1-(2-(1H-indol-1-yl)acetamido)-2-(3,5-difluorophenyl)ethyl)pyridin-3-yl)benzamide], the CC50 at 5 days is > 53000 nM.

`O=C(Cc1c[nH]c2ccc(O)cc12)NC(Cc1cc(F)cc(F)c1)c1nccnc1-c1ccc(Cl)cc1` (stereo not drawn) [Example 443I, N-(1-(3-(4-chlorophenyl)pyrazin-2-yl)-2-(3,5-difluorophenyl)ethyl)-2-(5-hydroxy-1H-indol-3-yl)acetamide] showed a 50% cytotoxic concentration (CC50) at 5 days of 16400 nM.

On to `NC(=O)c1cc(-c2cccnc2[C@H](Cc2cc(F)cc(F)c2)NC(=O)Cn2nc(C(F)F)c3c2C(F)(F)C2CC32)ccc1F` (single isomer, unassigned) [Example 215], for which the CC50 at 5 days stood at 19200 nM.

As to `NC(=O)c1cc(-c2cccnc2[C@H](Cc2cc(F)cc(F)c2)NC(=O)Cn2nc(C(F)(F)F)c3c2C[C@H]2C[C@@H]32)ccc1F` (single isomer, unassigned) [Example 173], the CC50 at 5 days was found to be 25500 nM.
